Biological target: rhesus macaque FcγRI
Assay: flow cytometry on cells
Conditions: value at the highest antibody concentration, about 5e4 ng/mL (read from the x axis); HEK293T/17 cells transiently transfected with rhesus macaque FcγRI; parent: est. 42000; read off a plot

Substance: PGT121 (recombinant human IgG1 antibody) L234A; L235A; P329G
- response (binding score): 2500

Reference: publication PMC11670951
